Where two headings read alike, the source gives them in different places.
System: female baboons

For “Tetanus Toxoid: carrier protein given alone to the control group”, the “Cycle length (mean)” value (Post-Immunization menstrual cycle 1) was 33.0, the “Cycle length (mean)” value (Post-Immunization menstrual cycle 2) was 32.0 and the “Cycle length (mean)” value (Post-Immunization menstrual cycle 3) was 32.0. For the same substance, the “Cycle length (mean)” value (Post-Immunization menstrual cycle 4) was 29.0, the “Cycle length (mean)” value (Pre-Immunization menstrual cycle −1) was 32.9 and the “Cycle length (mean)” value (Pre-Immunization menstrual cycle −2) was 32.2. For the same substance, the “Cycle length (mean)” value (Pre-Immunization menstrual cycle −3) was 33.1.

From patent US6716428B1 (The Ohio State University Research Foundation, priority 1999, dated 2004)
